B1: shark VNAR C3 (VNAR)
VNAR: ARVDQTPQTITAETGESLTINCVLRNSDCGLSDTYWFRMSPGSGSEERISIGGRYLETVNSVSKSFSLRINDLTVEDSGRYRCKTDVYRYVSGSGCLYSYFASGAGTVVTVN
B2: shark VNAR B8 (VNAR)
VNAR: ARVDQTPQTVTKETGESLTINCVLRDSNCALPSTYWYRKKSGSTNEENISKGGRYVETVNSGSKSFSLRINDLRPEDSGTYRCKVHGLPLDCIPARGLELNWREDVNGGGTAVTVN
B3: shark VNAR A1 (VNAR)
VNAR: ARVDQTPQTITKETGESLTINCVPPDSNCALADTYWYRKKSGSTNEESISKGGRYVPTVNSGSKSFILRINDLRVADSGTYRCKVSCYAAAYYGQQLERLYDVYGGGTAVTVN
B4: shark VNAR B10 (VNAR)
VNAR: ARVDQTPQTITKETGESLTINCVLRDSNCPLSSTFWYRADAGSLNEENISKGGRYVETVNSGSKSFSLRINDLTTEDSGTYRCKVAGLPLDCIPARGLELNWREDVYGGGTAVTVN
B5: camel VHH D5 (VHH)
VHH: AWQLVESGGGSVQPGGSLTLTCQASKSTFSTSGMRWERQAQGKGVEFVADISSDSTRKWYSDSVKGRFTISRSNWWRTVTLQMNDLKPEDTARYYCKDLESHHLRGQGTQVTVSS
B6: shark VNAR A10 (VNAR)
chain: ARVDQTPQTITKETGESLTITCILRDSQCALSPTYWYHKKSGSTKPERIYKGGRYVETVNSGSKSFSLRINDLTVEDSGTFFCKVSGWYAYSCRLEPDGYYDVYGGGTVVTVN

Biological target: stabilized soluble LASV GPC trimer (Lassa virus)

Row | Binder | Kd
1 | B1 | 19.7 nM
2 | B2 | 18.8 nM
3 | B3 | 39.1 nM
4 | B4 | 44.5 nM
5 | B5 | 26.7 nM
6 | B6 | 14.3 nM
